Reference: article PMC9891525, “High-throughput saturation mutagenesis generates a high-affinity antibody against SARS-CoV-2 variants using protein surface display assay on a human cell” (2023)

Assays:
[1] = target: biotinylated recombinant SARS-CoV-2 Beta variant (Lineage B.1.351) spike RBD (UniProt P0DTC2); test: flow cytometry on cells (HEK 293T antibody surface display system); details: n = 2 replicates; parent: est. 100; read off a plot
[2] = target: biotinylated recombinant SARS-CoV-2 Delta variant (Lineage B.1.617.2) S1 protein; test: as above; details: n = 2 replicates, read off a plot
[3] = target: biotinylated recombinant SARS-CoV-2 wild type spike RBD (UniProt P0DTC2); test: as above; details: n = 2 replicates, read off a plot
[4] = target: biotinylated recombinant SARS-CoV-2 Delta variant (Lineage B.1.617.2) S1 protein; test: HEK 293T antibody surface display library sort (DP3/DP0); details: n = two independent experiments; read off a plot
[5] = target: biotinylated recombinant SARS-CoV-2 Beta variant (Lineage B.1.351) spike RBD (UniProt P0DTC2); test: HEK 293T antibody surface display library sort (BP/BP0); details: n = three independent experiments; read off a plot

## REGN10987 scFv displayed on the surface of HEK 293T cells D54F
[1]
  percent of parent (Relative fluorescence): 270

## REGN10987 scFv displayed on the surface of HEK 293T cells D54I
[1]
  percent of parent (Relative fluorescence): 180

## REGN10987 scFv displayed on the surface of HEK 293T cells D54L
[1]
  percent of parent (Relative fluorescence): 140

## REGN10987 scFv displayed on the surface of HEK 293T cells D54T
[1]
  percent of parent (Relative fluorescence): 180

## REGN10987 scFv displayed on the surface of HEK 293T cells D54Y
[1]
  percent of parent (Relative fluorescence): 320

## REGN10987 scFv displayed on the surface of HEK 293T cells L106N
[2]; parent: est. 110
  percent of parent (Relative fluorescence): 170
[3]; parent: est. 100
  percent of parent (Relative fluorescence): 170

## REGN10987 scFv displayed on the surface of HEK 293T cells L106N; N57A
[2]; parent: est. 100
  percent of parent (Relative fluorescence): 580
[3]; parent: est. 100
  percent of parent (Relative fluorescence): 130

## REGN10987 scFv displayed on the surface of HEK 293T cells L106N; N57F
[2]; parent: est. 100
  percent of parent (Relative fluorescence): 380

## REGN10987 scFv displayed on the surface of HEK 293T cells L106N; N57T
[2]; parent: est. 100
  percent of parent (Relative fluorescence): 520

## REGN10987 scFv displayed on the surface of HEK 293T cells N57A
[4]
  enrichment: 6.4 log2(FC)
[2]; parent: est. 110
  percent of parent (Relative fluorescence): 200
[3]; parent: est. 100
  percent of parent (Relative fluorescence): 160

## REGN10987 scFv displayed on the surface of HEK 293T cells N57F
[2]; parent: est. 110
  percent of parent (Relative fluorescence): 230
[3]; parent: est. 100
  percent of parent (Relative fluorescence): 150

## REGN10987 scFv displayed on the surface of HEK 293T cells N57H
[1]
  percent of parent (Relative fluorescence): 170

## REGN10987 scFv displayed on the surface of HEK 293T cells N57T
[2]; parent: est. 110
  percent of parent (Relative fluorescence): 240
[3]; parent: est. 100
  percent of parent (Relative fluorescence): 160

## REGN10987 scFv displayed on the surface of HEK 293T cells S97Y
[5]
  enrichment: 2.6 log2(FC)
[1]
  percent of parent (Relative fluorescence): 190

## REGN10987 scFv displayed on the surface of HEK 293T cells S97Y; D54F
[1]
  percent of parent (Relative fluorescence): 160

## REGN10987 scFv displayed on the surface of HEK 293T cells S97Y; D54F; N57H
[1]
  percent of parent (Relative fluorescence): 160

## REGN10987 scFv displayed on the surface of HEK 293T cells S97Y; D54I
[1]
  percent of parent (Relative fluorescence): 320

## REGN10987 scFv displayed on the surface of HEK 293T cells S97Y; D54I; N57H
[1]
  percent of parent (Relative fluorescence): 310
[3]; parent: est. 110
  percent of parent (Relative fluorescence): 250

## REGN10987 scFv displayed on the surface of HEK 293T cells S97Y; D54L
[1]
  percent of parent (Relative fluorescence): 260

## REGN10987 scFv displayed on the surface of HEK 293T cells S97Y; D54L; N57H
[1]
  percent of parent (Relative fluorescence): 280
[3]; parent: est. 110
  percent of parent (Relative fluorescence): 250

## REGN10987 scFv displayed on the surface of HEK 293T cells S97Y; D54T
[1]
  percent of parent (Relative fluorescence): 270

## REGN10987 scFv displayed on the surface of HEK 293T cells S97Y; D54T; N57H
[1]
  percent of parent (Relative fluorescence): 280

## REGN10987 scFv displayed on the surface of HEK 293T cells S97Y; D54Y
[1]
  percent of parent (Relative fluorescence): 200

## REGN10987 scFv displayed on the surface of HEK 293T cells S97Y; D54Y; N57H
[1]
  percent of parent (Relative fluorescence): 220

## REGN10987 scFv displayed on the surface of HEK 293T cells S97Y; N57H
[1]
  percent of parent (Relative fluorescence): 260
